{"source": "patent US20210292393A1", "about": "(published 2021)", "binders": {"B1": {"name": "antibody 304 (antibody, V domains shown)", "VH": "EVQLLESGGGLVQPGGSLRLSCAASGFTFSTYAMSWVRQAPGKGLEWVSAISGSGGSTYYADSVKGRFTISRDNSKNTLYLQMNSLRAEDTAVYYCASGYSPDYWGQGTLVTVSS", "VL": "AIQMTQSPSSLSASVGDRVTITCRASQGIRNDLGWYQQKPGKAPKLLIYAASSLQSGVPSRFSGSGSGTDFTLTISSLQPEDFATYYCLQDYNYPRTFGQGTKVEIK"}, "B2": {"name": "antibody 308 (antibody, V domains shown)", "VH": "QLQLQESGPGLVKPSETLSLTCSVSGGSISSSSYHWGWIRQPPGKGLEWIGSIYYSGSTYYNPSLKSRVTISVDTSKNQFSLKLRSVTAADTAVYYCAGLRVVITFGGVIPKGGAFDIWGQGTMVTVSS", "VL": "QSALTQPASVSGSPGQSITISCTGTSSDVGGYNYVSWYQQHPGKAPKLMIYDVSNRPSGVSNRFSGSKSGNTASLTISGLQAEDEADYYCSSYTSSSTVVFGGGTKLTVL"}, "B3": {"name": "antibody 336 (antibody, V domains shown)", "VH": "QVQLVESGGGVVQPGRSLRLSCAASGFTFSSYAMHWVRQAPGKGLEWVAVISYDGSNKYYADSVKGRFTISRDNSKNTLYLQMNSLRAEDTAVYYCARAQTDYYDSSGWFDYWGQGTLVTVSS", "VL": "SYELTQPPSVSVSPGQTARITCSGDALPKQYAYWYQQKPGQAPVLVIYKDSERPSGIPERFSGSSSGTTVTLTISGVQAEDEADYYCQSADSSGTPHWVFGGGTKLTVL"}, "B4": {"name": "antibody 338 (antibody, V domains shown)", "VH": "QVQLQESGPGLVKPSETLSLTCAVSGYSISSDYYWGWIRQPPGKGLEWIGSIYHSGSTYYNPSLKSRVTISIDTSKNQFSLKLSSVTAADTAVYYCARDPGNYDILTGIFDYWGQGTLVTVSS", "VL": "QSALTQPASVSGSPGQSITISCTGTSSDVGVYNYVSWYQQHPGKAPKLMIYDVTNRPSGVSNRFSGSKSGNTASLTISGLQAEDEADYYCSSYTSSSTLAVYVFGTGTKVTVL"}, "B5": {"name": "antibody 400 (antibody, V domains shown)", "VH": "QVQLVESGGGVVQPGRSLRLSCAASGFTFSSYGMHWVRQAPGKGLEWVAVISYDGSNKYYADSVKGRFTISRDNSKNTLYLQMNSLRAEDTAVYYCAKAIDILTGYGPGGMDVWGQGTTVTVSS", "VL": "QSVLTQPPSASGTPGQRVTISCSGSSSNIGSNYVYWYQQLPGTAPKLLIYRNNQRPSGVPDRFSGSKSGTSASLAISGLRSEDEADYYCAAWDDSLSGVVFGGGTKLTVL"}, "B6": {"name": "antibody 518 (antibody, V domains shown)", "VH": "QVQLVESGGGVVQPGRSLRLSCAASGFTFSSYAMHWVRQAPGKGLEWVAVISYDGSNKYYADSVKGRFTISRDNSKNTLYLQMNSLRAEDTAVYYCAKPYSGSYWDAFDIWGQGTMVTVSS", "VL": "not shown"}, "B7": {"name": "antibody 520 (antibody, V domains shown)", "VH": "QVQLVESGGGVVQPGRSLRLSCAASGFTFSSYAMHWGRQAPGKGLEWVAVISYDGSNKYYADSVKGRFTISRDNSKNTLYLQMNSLRAEDTAVYYCARDGGSGWLLVGNWFDPWGQGTLVTVSS", "VL": "QSALTQPASVSGSPGQSITISCTGTSSDVGGYNYVSWYQQHPGKAPKLMIYDVSNRPSGVSNRFSGSKSGNTASLTISGLQAEDEADYYCSSYTSSITLYVFGTGTKVTVL"}, "B8": {"name": "antibody 532 (antibody, V domains shown)", "VH": "EVQLVESGGGLVQPGGSLRLSCAASGIIVSSNYMSWVRQAPGKGLEWVSVIYSGGSTYYADSVKGRFTISRDNSKNTLYLQMNSLRAEDTAVYYCAREGLVGATLAFDYWGQGTLVTVSS", "VL": "not shown"}, "B9": {"name": "antibody 554 (antibody, V domains shown)", "VH": "QVQLVESGGGVVQPGRSLRLSCAASGFTFSSYAMHWVRQAPGKGLEWVAVISYDGSNKYYADSVKGRFTISRDNSKNTLYLQMNSLRAEDTAVYYCARPQGGNYYYYGMDVWGQGTTVTVSS", "VL": "DIQMTQSPSSVSASVGDRVTITCRASQGISSWLAWYQQKPGKAPKLLIYAASSLQSGVPSRFSGSGSGTDFTLTISSLQPEDFATYYCQQANSFPLTFGGGTKVEIK"}, "B10": {"name": "antibody 562 (antibody, V domains shown)", "VH": "B6 VH with K98R, P99A, Y100S, S103G, W105Q, D106G, A107P, I110P, M116L", "VL": "QSALTQPASVSGSPGQSITISCTGTSSDVGGYNYVSWYQQHPGKAPKLMIYDVSNRPSGVSNRFSGSKSGNTASLTISGLQAEDEADYYCSSYTSSSTLLYVFGTGTKVTVLG"}, "B11": {"name": "antibody 568 (antibody, V domains shown)", "VH": "EVQLVESGGVVVQPGGSLRLSCAASGFTFDDYAMHWVRQAPGKGLEWVSLISWDGGSTYYADSVKGRFTISRDNSKNSLYLQMNSLRAEDTALYYCAKDIGYSSTTTEVGWFDPWGQGTLVTVSS", "VL": "B9 VL"}, "B12": {"name": "antibody 570 (antibody, V domains shown)", "VH": "QVQLQESGPGLVKPSQTLSLTCTVSGGSISSGSYYWSWIRQPAGKGLEWIGRIYTSGSTNYNPSLKSRVTISVDTSKNQFSLKLSSVTAADTAVYYCAREGQWLYRFDYWGQGTLVTVSS", "VL": "not shown"}}, "key": {"[1]": {"molecular_target": "T1, full-length trimeric SARS-CoV spike protein (SARS-CoV, UniProt P59594 14-1190)", "assay": "multiplexed bead assay, flow cytometry"}, "[2]": {"molecular_target": "T1, full-length trimeric SARS-CoV spike …", "assay": "multiplexed bead assay, flow cytometry", "remark": "listed apart in the source"}, "SARS-CoV spike protein [3]": {"molecular_target": "T2, SARS-CoV spike protein (SARS-CoV, UniProt P59594 14-1190)", "assay": "multiplexed bead assay, flow cytometry"}, "SARS-CoV spike protein [4]": {"molecular_target": "T2, SARS-CoV spike protein", "assay": "multiplexed bead assay, flow cytometry", "remark": "listed apart in the source"}, "[5]": {"molecular_target": "T3, SARS-CoV spike protein (full length spike, trimeric, conjugated to beads) (SARS-CoV, UniProt P59594 14-1190)", "assay": "multiplexed bead assay, flow cytometry"}, "[6]": {"molecular_target": "T3, SARS-CoV spike protein (full length …)", "assay": "multiplexed bead assay, flow cytometry", "remark": "listed apart in the source"}, "[7]": {"molecular_target": "T4, SARS-CoV spike protein (full-length trimeric, on beads) (SARS-CoV, UniProt P59594 14-1190)", "assay": "multiplexed bead assay, flow cytometry"}, "[8]": {"molecular_target": "T4, SARS-CoV spike protein (full-length …)", "assay": "multiplexed bead assay, flow cytometry", "remark": "listed apart in the source"}, "[9]": {"molecular_target": "T4, SARS-CoV spike protein (full-length …)", "assay": "multiplexed bead assay, flow cytometry", "remark": "listed apart in the source"}, "[10]": {"molecular_target": "T4, SARS-CoV spike protein (full-length …)", "assay": "multiplexed bead assay, flow cytometry", "remark": "listed apart in the source"}, "[11]": {"molecular_target": "T4, SARS-CoV spike protein (full-length …)", "assay": "multiplexed bead assay, flow cytometry", "remark": "listed apart in the source"}, "[12]": {"molecular_target": "T5, SARS-CoV spike protein (full-length trimeric, conjugated to optically encoded beads) (SARS-CoV, UniProt P59594 14-1190)", "assay": "multiplexed bead assay, flow cytometry, SARS-CoV spike on beads"}, "[13]": {"molecular_target": "T5, SARS-CoV spike protein (full-length …)", "assay": "multiplexed bead assay, flow cytometry, SARS-CoV spike on beads", "remark": "listed apart in the source"}, "[14]": {"molecular_target": "T5, SARS-CoV spike protein (full-length …)", "assay": "multiplexed bead assay, flow cytometry, SARS-CoV spike on beads", "remark": "listed apart in the source"}, "[15]": {"molecular_target": "T5, SARS-CoV spike protein (full-length …)", "assay": "multiplexed bead assay, flow cytometry, SARS-CoV spike on beads", "remark": "listed apart in the source"}}, "note": "Where a chain is given by its changes, count along the chain named. Where two headings read alike, the source gives them in different places."}
{"binder": "B1", "values": [{"measurement": "median fluorescence intensity, fold over isotype control", "setting": "[1]", "value": 1.13, "unit": "fold over isotype"}, {"measurement": "median fluorescence intensity, fold over isotype control", "setting": "[2]", "value": 1.09, "unit": "fold over isotype"}]}
{"binder": "B2", "values": [{"measurement": "median fluorescence intensity, fold over isotype control", "setting": "[1]", "value": 48.3, "unit": "fold over isotype"}, {"measurement": "median fluorescence intensity, fold over isotype control", "setting": "[2]", "value": 20.8, "unit": "fold over isotype"}]}
{"binder": "B3", "values": [{"measurement": "median fluorescence intensity, fold over isotype control", "setting": "SARS-CoV spike protein [3]", "value": 1.09, "unit": "fold over isotype"}, {"measurement": "median fluorescence intensity, fold over isotype control", "setting": "SARS-CoV spike protein [4]", "value": 1.08, "unit": "fold over isotype"}]}
{"binder": "B4", "values": [{"measurement": "median fluorescence intensity, fold over isotype control", "setting": "SARS-CoV spike protein [3]", "value": 84.8, "unit": "fold over isotype"}, {"measurement": "median fluorescence intensity, fold over isotype control", "setting": "SARS-CoV spike protein [4]", "value": 36.6, "unit": "fold over isotype"}]}
{"binder": "B5", "values": [{"measurement": "median fluorescence, fold over isotype control", "setting": "[5]", "value": 1, "unit": "fold over isotype control"}, {"measurement": "median fluorescence, fold over isotype control", "setting": "[6]", "value": 0.91, "unit": "fold over isotype control"}]}
{"binder": "B6", "values": [{"measurement": "bead binding signal, fold over isotype control", "setting": "[7]", "value": 15.3, "unit": "fold over isotype"}, {"measurement": "bead binding signal, fold over isotype control", "setting": "[8]", "value": 7.54, "unit": "fold over isotype"}, {"measurement": "bead binding signal, fold over isotype control", "setting": "[9]", "value": 38.8, "unit": "fold over isotype"}, {"measurement": "bead binding signal, fold over isotype control", "setting": "[10]", "value": 90.2, "unit": "fold over isotype"}, {"measurement": "bead binding signal, fold over isotype control", "setting": "[11]", "value": 40.1, "unit": "fold over isotype"}]}
{"binder": "B7", "values": [{"measurement": "bead binding signal, fold over isotype control", "setting": "[10]", "value": 17.7, "unit": "fold over isotype"}, {"measurement": "bead binding signal, fold over isotype control", "setting": "[11]", "value": 10.7, "unit": "fold over isotype"}]}
{"binder": "B8", "values": [{"measurement": "bead binding signal, fold over isotype control", "setting": "[7]", "value": 0.8, "unit": "fold over isotype"}, {"measurement": "bead binding signal, fold over isotype control", "setting": "[8]", "value": 0.82, "unit": "fold over isotype"}, {"measurement": "bead binding signal, fold over isotype control", "setting": "[9]", "value": 0.82, "unit": "fold over isotype"}, {"measurement": "bead binding signal, fold over isotype control", "setting": "[10]", "value": 1.03, "unit": "fold over isotype"}, {"measurement": "bead binding signal, fold over isotype control", "setting": "[11]", "value": 1, "unit": "fold over isotype"}]}
{"binder": "B9", "values": [{"measurement": "fold over isotype control (median fluorescence intensity)", "setting": "[12]", "value": 8.45, "unit": "fold over isotype"}, {"measurement": "fold over isotype control (median fluorescence intensity)", "setting": "[13]", "value": 28, "unit": "fold over isotype"}]}
{"binder": "B10", "values": [{"measurement": "fold over isotype control (median fluorescence intensity)", "setting": "[14]", "value": 6.09, "unit": "fold over isotype"}, {"measurement": "fold over isotype control (median fluorescence intensity)", "setting": "[15]", "value": 2.57, "unit": "fold over isotype"}, {"measurement": "fold over isotype control (median fluorescence intensity)", "setting": "[12]", "value": 5.67, "unit": "fold over isotype"}, {"measurement": "fold over isotype control (median fluorescence intensity)", "setting": "[13]", "value": 17.9, "unit": "fold over isotype"}]}
{"binder": "B11", "values": [{"measurement": "fold over isotype control (median fluorescence intensity)", "setting": "[12]", "value": 1.07, "unit": "fold over isotype"}, {"measurement": "fold over isotype control (median fluorescence intensity)", "setting": "[13]", "value": 0.99, "unit": "fold over isotype"}]}
{"binder": "B12", "values": [{"measurement": "fold over isotype control (median fluorescence intensity)", "setting": "[12]", "value": 2.42, "unit": "fold over isotype"}, {"measurement": "fold over isotype control (median fluorescence intensity)", "setting": "[13]", "value": 6.92, "unit": "fold over isotype"}]}
